Construct, isoform or probe ends are uncertain for at least one entry. At least one result comes from cells or an extract, where the contact may be indirect. For some assays here: Tags and fusion partners may be left off the protein sequences shown.
What was measured:
[1] = biological target: T1, NF-kB p50 (UniProt P25799); assay: DNA pull-down, immunoblot; conditions: LPS 12 h nuclear extract; Nuclear extracts of LPS-treated BMDCs, streptavidin Dynabeads; protein in an extract; label: biotin (pulldown), 32P (EMSA)
T1 sequence (looked up, limits assumed): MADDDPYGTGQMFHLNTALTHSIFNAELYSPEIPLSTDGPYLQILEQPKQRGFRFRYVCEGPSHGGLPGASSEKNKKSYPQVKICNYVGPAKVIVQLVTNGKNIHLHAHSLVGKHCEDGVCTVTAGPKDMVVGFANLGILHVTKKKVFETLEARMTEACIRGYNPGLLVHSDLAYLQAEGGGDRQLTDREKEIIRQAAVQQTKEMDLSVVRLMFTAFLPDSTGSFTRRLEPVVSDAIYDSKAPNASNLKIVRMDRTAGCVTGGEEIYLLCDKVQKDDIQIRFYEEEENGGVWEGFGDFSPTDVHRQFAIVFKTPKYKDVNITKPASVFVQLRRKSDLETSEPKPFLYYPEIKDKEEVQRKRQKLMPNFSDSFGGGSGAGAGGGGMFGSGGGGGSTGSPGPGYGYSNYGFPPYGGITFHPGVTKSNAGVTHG

Protein sequences, listed by entry. Tags and fused reporters are not part of them.
UniProt Q04207, whole entry: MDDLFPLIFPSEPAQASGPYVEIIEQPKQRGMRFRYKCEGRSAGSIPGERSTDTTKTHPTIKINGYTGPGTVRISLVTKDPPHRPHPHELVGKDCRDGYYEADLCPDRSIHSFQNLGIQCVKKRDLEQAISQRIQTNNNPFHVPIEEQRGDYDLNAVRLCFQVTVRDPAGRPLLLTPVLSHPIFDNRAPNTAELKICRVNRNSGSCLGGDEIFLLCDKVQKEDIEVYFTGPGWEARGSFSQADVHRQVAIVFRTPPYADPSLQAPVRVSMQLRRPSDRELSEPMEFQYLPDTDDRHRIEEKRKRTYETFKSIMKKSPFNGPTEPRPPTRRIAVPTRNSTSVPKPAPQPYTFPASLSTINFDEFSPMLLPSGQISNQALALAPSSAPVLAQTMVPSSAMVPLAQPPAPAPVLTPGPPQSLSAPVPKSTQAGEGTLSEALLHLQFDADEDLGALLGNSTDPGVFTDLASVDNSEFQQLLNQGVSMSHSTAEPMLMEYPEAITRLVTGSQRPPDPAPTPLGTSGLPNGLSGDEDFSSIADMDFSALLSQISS

[2] = biological target: NF-kB p65 (UniProt Q04207); assay: DNA pull-down, immunoblot; conditions: LPS 12 h nuclear extract; Nuclear extracts of LPS-treated BMDCs, streptavidin Dynabeads; protein in an extract; label: biotin (pulldown), 32P (EMSA)

## CATTTGACAGGATACTCCCTCAGGACGGAAC (double strand) [CLEC1B-Pr]
[1]
  binding result: binds
[2]
  binding result: binds

— PMC10269552
